A mixed list of measured activities; the numbers were collected in NIAID ChemDB.

Shared fields: target-level tests; organism: HIV-1; target: Reverse transcriptase

Two numbers with a dash give a range or band.

structure,read by,measure,strain,changes,result
CCCN1C(=O)c2cc(Cl)nnc2N(CC)c2ccccc21,,IC50,,,>330 µM
CS(=O)(=O)Nc1cccc(CNC(=O)c2[nH]c3ccc(Cl)cc3c2S(=O)(=O)c2ccccc2)c1,nucleotide incorporation,IC50,,,0.003–0.035 µM
NCCCNC(=O)c1ccc(NC(=O)CSC(=O)N2CCCc3cc(Cl)cc(Cl)c32)c(Cl)c1,scintillation proximity,IC50,,K103N,0.002 µM
CC(C)=CCOc1cc(NC(=S)c2ccsc2C)ccc1Cl,,IC50,,RT-V106A,0.5 µM
Cc1cc(-c2ccc(C#N)cc2)cc(C)c1Oc1ccnc(S(=O)(=O)C(C)C(=O)Nc2ccc(C#N)cc2)n1,RT activity / fluorescence,IC50,,,2.606 µM
FC(F)(F)c1nnc2c3ccccc3c(N3CCc4ccccc4C3)nn12,RT activity / fluorescence,IC90,IIIB,,10.5 µM
O=C(NCc1cccnc1)c1[nH]c2ccc(Cl)cc2c1Sc1ccccc1,nucleotide incorporation,IC50,,,0.003–0.035 µM
CS(=O)(=O)O.N[C@H]1CCN(c2nc3c(cc2F)c(=O)c(C(=O)O)cn3-c2cccc3ccccc23)C1,ELISA,IC50,,,>1 µg/mL
CCCC#CC1(C(F)(F)F)OC(=O)Nc2ccc(N)cc21,,IC50,,,1.894 µM
CC1(C)O[C@@H]2[C@H](O1)[C@H](O)O[C@@H]2C1=NO[C@H](C[C@H]2O[C@H](CO)[C@H](O)[C@H](O)[C@H]2O)C1,RT activity / absorbance,IC50,,,4.64 µM
Cc1cc(C#N)cc(Cl)c1Oc1nc(NC2CCN(c3cccc(C(N)=O)c3)CC2)ncc1Br,scintillation proximity,IC50,,K103N/Y181C,0.017 µM
Cc1cn([C@H]2CC[C@@H](COP(=O)(O)OP(=O)(O)OP(=O)(O)O)O2)c(=O)[nH]c1=O,,IC50,LAV,,0.0088 µM
CCc1c(-c2coc(CC/C(C)=C/c3ccccc3)n2)oc(OC)c(C)c1=O,nucleotide incorporation,IC50,,,376 µM
CCN1C(=O)c2cc(Cl)nnc2N(C2CC2)c2ccccc21,,IC50,,,~330 µM
CS(=O)(=O)O.N[C@H]1CCN(c2cc3c(cc2F)c(=O)c(C(=O)O)cn3-c2ccc3ccccc3c2)C1,ELISA,IC50,,,1 µg/mL
COC(/C=C/[C@@H](C)[C@@H](OC(C)=O)[C@H](C)[C@H](OC(C)=O)[C@H](C)[C@@H](OC(C)=O)[C@@H](C)/C=C/C=C(/C)C(=O)NC1=CC(=O)c2c(c(O)c(C)c3oc(C)cc23)C1=O)OC,ELISA,IC50,,,>300 µM
Cc1cc(C#N)cc(C)c1Nc1ccnc(NC2CCN(c3cccc(C(N)=O)c3)CC2)n1,scintillation proximity,IC50,,K103N/Y181C,0.018 µM
CC(=O)Nc1ccc2c(c1)C(C#CCC(C)C)(C(F)(F)F)OC(=O)N2,,IC50,,,>2 µM
COc1ccc2c(c1)CN(c1nn3c(C(C)C)nnc3c3ccccc13)CC2,RT activity / fluorescence,IC50,98US_MSC5016,,0.28 µM
O=C(NCc1ccccn1)c1[nH]c2ccc(Cl)cc2c1Sc1ccccc1,nucleotide incorporation,IC50,,,0.003–0.035 µM
Cc1cc(C#N)cc(Cl)c1Nc1ccnc(NC2CCN(c3cccc(C(N)=O)c3)CC2)n1,scintillation proximity,IC50,,K103N/Y181C,0.017 µM
Cc1cc(-c2ccc(C#N)cc2)cc(C)c1Oc1ccnc(S(=O)(=O)CC(=O)Nc2ccc(F)cc2)n1,RT activity / fluorescence,IC50,,,0.162 µM
Cn1ccnc1CNC(=O)c1[nH]c2ccc(Cl)cc2c1S(=O)(=O)c1cccc(Cl)c1,nucleotide incorporation,IC50,,,0.003–0.035 µM
CS(=O)(=O)O.O=C(O)c1cn(-c2ccc3ccccc3c2)c2nc(N3CCNCC3)c(F)cc2c1=O,ELISA,IC50,,,1 µg/mL
Cc1cc(-c2ccc(C#N)cc2)cc(C)c1Oc1ccnc(S(=O)(=O)C(C)C(=O)Nc2ccc(Cl)cc2)n1,RT activity / fluorescence,IC50,,,1.886 µM
CCc1cn([C@H]2CC[C@@H](COP(=O)(O)OP(=O)(O)OP(=O)(O)O)O2)c(=O)[nH]c1=O,,IC50,,,0.108 µM
COC(=O)/C(C)=C\C=C\[C@H](C)[C@H](O)[C@@H](C)[C@@H](O)[C@@H](C)[C@H](OC(C)=O)[C@H](C)[C@H](/C=C/O[C@@]1(C)Oc2c(C)c(O)c3c(c2C1=O)C(=O)C=C(N)C3=O)OC,ELISA,IC50,,,>300 µM
C=CS(=O)(=O)N1CCCC(NS(=O)(=O)c2c(C(N)=O)[nH]c3ccc(Br)cc23)C1,RT activity / radiometric,IC50,BH10,Y181C,75.2 µM
COc1cc(C#N)cc(C)c1Oc1nc(NC2CCN(c3cccc(C(N)=O)c3)CC2)ncc1Br,scintillation proximity,IC50,,K103N/Y181C,0.028 µM
O=C(Nc1cccnc1)c1[nH]c2ccc(Cl)cc2c1Sc1ccccc1,nucleotide incorporation,IC50,,,0.003–0.035 µM
CC(C)=CCOc1cc(NC(=S)c2ccoc2C)ccc1Cl,,IC50,,,3.2 µM
CN1CCN(c2cc3c(cc2F)c(=O)c(C(=O)O)cn3-c2cccc3ccccc23)CC1.CS(=O)(=O)O,ELISA,IC50,,,<1 µg/mL
O=C(NCc1ccncc1)c1[nH]c2ccc(Cl)cc2c1S(=O)c1ccccc1,nucleotide incorporation,IC50,,,0.003–0.035 µM
COC(CC1O[C@H]([C@H](C)[C@@H](O)[C@@H](C)/C=C/C=C(/C)C(=O)NC2=CC(=O)c3c(c(O)c(C)c4oc(C)cc34)C2=O)[C@@H](C)[C@H](OC(C)=O)[C@@H]1C)OC,ELISA,IC50,,,>300 µM
Cc1cc(C#N)cc(Cl)c1Oc1nc(NC2CCN(c3cccc(C(N)=O)c3)CC2)ncc1Cl,scintillation proximity,IC50,,K103N/Y181C,0.013 µM
CO[C@H]1O[C@H](C2=NO[C@H](C[C@H]3O[C@H](CO)[C@@H](O)[C@H](O)[C@@H]3O)C2)[C@@H](O)[C@H](O)[C@H]1O,RT activity / absorbance,IC50,,,>50 µM
Cc1nnc2c3ccccc3c(N3Cc4ccccc4C(C)(C)C3)nn12,RT activity / fluorescence,IC90,KER2008,,57.4 µM
CCN1C(=O)c2ccnnc2N(C2CC2)c2ccc(C)cc21,,IC50,,,~330 µM
CCCC#CC1(C(F)(F)F)OC(=O)Nc2ccc([N+](=O)[O-])cc21,,IC50,,,0.276 µM
CC1(C)O[C@H]2O[C@H](C3=NO[C@H](C[C@H]4O[C@H](CO)[C@@H](O)[C@H](O)[C@@H]4O)C3)[C@H](O)[C@H]2O1,RT activity / absorbance,IC50,,,9.61 µM
NC(=O)c1[nH]c2ccc(Cl)cc2c1Sc1ccccc1,nucleotide incorporation,IC50,,,0.003–0.035 µM
CC1(C)O[C@H]2O[C@H](C3=NO[C@@H](C[C@H]4O[C@H](CO)[C@@H](O)[C@H](O)[C@@H]4O)C3)[C@H](O)[C@H]2O1,RT activity / absorbance,IC50,,,7.17 µM
CCCN1C(=O)c2cc(Cl)nnc2N(CCC)c2ccc(C)cc21,,IC50,,,>330 µM
Oc1ccc2c(c1)CN(c1nn3c(C4CC4)nnc3c3ccccc13)CC2,RT activity / fluorescence,IC50,KER2008,,0.39 µM
Cc1cc(C#N)cc(F)c1Oc1nc(NC2CCN(c3cccc(C(N)=O)c3)CC2)ncc1Br,scintillation proximity,IC50,,K103N/Y181C,0.005 µM

For reference, 3 entries again:

structure	read by	measure	strain	changes	result
CC(C)=CCOc1cc(NC(=S)c2ccsc2C)ccc1Cl		IC50		RT-V106A	0.5 µM
CO[C@H]1O[C@H](C2=NO[C@H](C[C@H]3O[C@H](CO)[C@@H](O)[C@H](O)[C@@H]3O)C2)[C@@H](O)[C@H](O)[C@H]1O	RT activity / absorbance	IC50			>50 µM
Cc1cc(C#N)cc(Cl)c1Nc1ccnc(NC2CCN(c3cccc(C(N)=O)c3)CC2)n1	scintillation proximity	IC50		K103N/Y181C	0.017 µM

Neighbouring rows are from separate reports. Blank or dashed fields: not listed here. ICn is the concentration giving n% inhibition.